PubChem BioAssay AID504761 – Drosophila RNAi Screening Center – 2011
The screen tested about 22,000 reagents; below is an unselected part of those that have a named target and a result. Of all reagents, 116 (0.52%) got an active call. 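Calls depend on retest data that are not deposited; infection was ranked per plate without normalising between plates; the unit of the infection score is not given.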 The raw values are shown without normalisation. Further read-outs or replicates are left out here. Reagent sequences are not shown. Not given: the amount of reagent, the time to read-out.

- Assay: 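Genome-wide fly cell screen for genes dengue virus requires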 (primary screen)
- Cells: D.Mel-2 cells from Drosophila
- Reagent: long dsRNA against Drosophila genes
- Treatment: infection with dengue virus type 2; dose and infection time not stated
- Measurement: 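Per well on two replicate plates, imaging gave the percent of cells positive for viral envelope protein, ranked by infection, and a nuclear count of cells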
- Direction: infection score: higher = more virus-infected cells; cell count: higher = more cells in the well
- Rule for the call: 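Very low infection ranking in both replicate wells (chance probability at most 0.065), then a retest showing infection dropped 1.5-fold or more at p below 0.05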
- Meaning of the calls: active = confirmed: knock-down lowers infection; inactive = not picked or not confirmed

CG30082 [DRSC22945] — infection score, replicate 1: 4.01; cell count, replicate 1: 6686; outcome: inactive
CG14275 [DRSC02379] — infection score, replicate 1: 13.1; cell count, replicate 1: 5291; outcome: inactive
CG14275 [DRSC27588] — infection score, replicate 1: 1.46; cell count, replicate 1: 6375; outcome: inactive
mld (molting defective) [DRSC13681] — infection score, replicate 1: 1.06; cell count, replicate 1: 6321; outcome: active
mld (molting defective) [DRSC14622] — infection score, replicate 1: 2.75; cell count, replicate 1: 6763; outcome: inactive
mld (molting defective) [DRSC21771] — infection score, replicate 1: 29.8; cell count, replicate 1: 4585; outcome: inactive
mld (molting defective) [DRSC23427] — infection score, replicate 1: 3.82; cell count, replicate 1: 6258; outcome: inactive
mld (molting defective) [DRSC23729] — infection score, replicate 1: 12; cell count, replicate 1: 5974; outcome: inactive
Spt5 [DRSC07556] — infection score, replicate 1: 15.4; cell count, replicate 1: 4623; outcome: inactive
hng3 (hinge3) [DRSC08367] — infection score, replicate 1: 4.06; cell count, replicate 1: 6151; outcome: inactive
hng3 (hinge3) [DRSC29262] — infection score, replicate 1: 29.5; cell count, replicate 1: 4378; outcome: inactive
COX5A (Cytochrome c oxidase subunit 5A) [DRSC16611] — infection score, replicate 1: 5.83; cell count, replicate 1: 5005; outcome: inactive
